# Percent effect of library compounds

Mtb cholesterol medium: 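Growth of Mycobacterium tuberculosis over 4 days (cholesterol / DPPC medium with tyloxapol); the read-out is not stated. Concentration: 500 µM. Direction is inferred from retests: higher values go with more growth inhibition. Size under these conditions: about 18,000 compounds, about 900 of them at 50% or above in at least one test.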
Mtb glucose medium: 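Growth of Mycobacterium tuberculosis over 3 days (7H9 medium with glucose and tyloxapol); the read-out is not stated. Concentration: 500 µM. Higher reads as more growth inhibition (inferred: compounds with an IC50 in retests scored well above the rest). Of about 18,000 compounds tested this way, about 1,400 (7.9%) reached 50% or more in at least one test.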

Each number is a percent effect as filed. How 0% and 100% were set is not recorded. Most values in the screen are low, and negative values occur. The entries come from a sample that favours strong results. A dash means the value is not listed here; it may have been measured.

SMILES	Mtb cholesterol medium	Mtb glucose medium
O=C(c1ccco1)N1CCCN(Cc2cscn2)CC1	78.72	29.44
Cc1cc(C2CCCN2CC(=O)N2CCOCC2)on1 (stereo not shown)	-	-1.466
CC(C)c1cccc(Cn2cc(F)ccc2=O)n1	-9.556	4.435
NCc1noc(-c2cccc(Br)c2)n1	66.51	62.02
Cc1ccc(C(=O)N2CCOCC2)cc1NS(C)(=O)=O	-	9.759
CN1CCC(NC(=O)c2ccc(C#N)cc2)CC1	-	-18.27
O=C(NCc1nccs1)c1csc(NC2CC2)n1	23.69	49.26
CCn1ncnc1CN1CCCC1c1ccccn1 (stereo not shown)	-	33.73
O=C1NC(=O)c2cc(C(F)(F)F)ccc21	-2.612	-
O=S(=O)(c1cccc2nsnc12)N1CCNCC1	-	-17.78
O=C1CCN(CC(O)c2ccccc2F)CCN1 (stereo not shown)	-	-1.123
N[C@@H]1C[C@@H]1N1CCOCC1	-	20.92
NC(=O)C1CCN(C(=O)c2cc3cc(Br)ccc3o2)C1 (stereo not shown)	-	5.813
CCN(CC)C(=O)c1cccc(C(=O)N(CC)CC)c1	-	10.09
CCCOC1CCCN(C(=O)CCn2cnnn2)C1 (stereo not shown)	2.713	8.208
Nc1cc(CN2CCOC(COCC3CC3)C2)ccn1 (stereo not shown)	-	31.75
O=S(=O)(CCN1CCOCC(O)C1)c1ccccc1 (stereo not shown)	30.65	40.71
CCC(N)(CC)CNS(=O)(=O)N(C)C1CCCCC1	-	30.33
CCN1CCCC1CNC(=O)c1cncc(Br)c1 (stereo not shown)	0.7205	-
N[C@@H]1CCN(Cc2ccc(C(F)(F)F)nc2)C[C@H]1O	-	9.67
NCc1cccc(C(=O)NCc2ccco2)c1	-	55.83
CCN(C)S(=O)(=O)Nc1cc(Cl)c(OC)c(Cl)c1	-	9.612
COc1ccc(F)cc1C(=O)OCC(=O)NC1CC1	64.37	78.24
O=C(CNc1ccccc1Cl)Nc1cccnc1O	-	18.51
COc1ncc(N)c(C)c1Br	-	-41.97
Cn1ccnc1CCNC(=O)C1(C)CCCO1 (stereo not shown)	-	8.541
NCc1ccccc1S(N)(=O)=O	-	-5.198
CCC=C(C)C(=O)NC1CCN(C(C)=O)CC1	-	16.98
Nc1cc(=O)[nH]n1-c1ccc(C(F)(F)F)cn1	87.25	61.33
CCc1ccccc1OCCN(C)CC(O)CO (stereo not shown)	13.03	40.59
CN(C)c1ccc(C2NCCc3[nH]cnc32)cn1 (stereo not shown)	-	14.1
CC(CNc1ccccc1)NC(=O)c1ccncc1F (stereo not shown)	-	-2.451
CC(=O)NCCNc1c(C)c(C)nc2ccccc12	-30.09	-
CC(C)(C)OC(=O)N1CCN(C2CCCNC2)C(=O)C1 (stereo not shown)	-	6.998
Cc1ccc(CCCC(=O)N(C)CC(N)=O)cc1	28.35	42.35
COC(=O)c1ccc(C)c(CO)c1	-	17.94
N[C@@H]1CC[C@@H]1NC(=O)Cc1c[nH]c2ccccc12	-	47.68
CCNC(=O)CN1CCCC(CC)(CO)C1 (stereo not shown)	-	-7.605
CC1C(=O)NCCCN1C(=O)NCc1ccsc1Br (stereo not shown)	-	26.29
OCc1noc(-c2ccccc2)n1	-	18.56
CN(C)Cc1ccc(-c2nc(C3CCOC3)no2)o1 (stereo not shown)	3.076	17.79
Cc1ncsc1C(=O)NC(CCO)C(C)(C)C (stereo not shown)	0.03788	-0.333

The first 5 entries again:

O=C(c1ccco1)N1CCCN(Cc2cscn2)CC1 read Mtb cholesterol medium: 78.72%; Mtb glucose medium: 29.44%.
Cc1cc(C2CCCN2CC(=O)N2CCOCC2)on1 (stereo not shown) read Mtb glucose medium: -1.466%.
CC(C)c1cccc(Cn2cc(F)ccc2=O)n1 read Mtb cholesterol medium: -9.556%; Mtb glucose medium: 4.435%.
NCc1noc(-c2cccc(Br)c2)n1 read Mtb cholesterol medium: 66.51%; Mtb glucose medium: 62.02%.
Cc1ccc(C(=O)N2CCOCC2)cc1NS(C)(=O)=O read Mtb glucose medium: 9.759%.

Data taken from ChEMBL document CHEMBL3988442, “University of Dundee, Small-Polar-MMV Screening Library” (2021).